According to PubChem BioAssay AID602481 (Broad Institute, 2012):
Only a part is listed here, and it is no random draw. Calls of active or inactive are those of the source. No stated cut-off is given here; in the data, active means inhibition above about 40%; inconclusive means no clear call, values can overlap the other calls; inactive means below that.

Each molecule was assayed on 7,8-diaminopelargonic acid synthase BioA (Mycobacterium tuberculosis) (assay: M. tuberculosis BioA enzyme inhibitors, primary screen, biochemical, plate reader, single point, HTS (AID 602481)). Conditions: purified M. tuberculosis BioA enzyme, at 9.99 µM, hits give high values.
`O=C(NCC1(N2CCCCC2)CCCCC1)c1ccc(=O)[nH]c1` was tested, and the inhibition was inactive: -3.14%. With `CCCCn1nnnc1C(CC)N1CCC(n2c(=O)[nH]c3ccccc32)CC1` (stereo unspecified) the inhibition was inactive: 0.837%. In the case of `O=C(NCC1(N2CCCCC2)CCCCC1)c1cccs1`, the inhibition is reported as inactive: -2.73%. `CCCCn1nnnc1C(c1cccs1)N1CCC(n2c(=O)[nH]c3ccccc32)CC1` (stereo unspecified) was tested, and the inhibition was inactive: 2.39%. In the case of `COc1ccc(C(=O)NCC2(N3CCCCC3)CCCCC2)cc1`, the inhibition is reported as inactive: -0.915%. `CC(C)(C)OC(=O)N1CCC(N(C(=O)c2ccccc2)c2ccc(F)cc2)CC1` was tested, and the inhibition was inactive: -1.09%. With `CCC(c1nnnn1C1CCCC1)N1CCC(n2c(=O)[nH]c3ccccc32)CC1` (stereo unspecified) the inhibition was inactive: 1.58%. `CSc1ccccc1C(=O)NCC1(N2CCCCC2)CCCCC1` was tested, and the inhibition was inactive: -2.6%. For `Cc1cccc(NC2(C#N)CCN(Cc3ccccc3)CC2)c1`, the inhibition was inactive: 0.822%. `CN1CCC(Nc2cccc(F)c2)CC1` was tested, and the inhibition was inactive: 0.85%. `O=C(NCC1(N2CCCCC2)CCCCC1)c1cncc(Br)c1` was tested, and the inhibition was inactive: -0.803%. With `Cc1ccc(C(=O)NCC2(N(C)C)CCCCC2)o1` the inhibition was inactive: -2.44%. For `CCCOc1ccc(C(=O)NCC2(N(C)C)CCCCC2)cc1OC`, the inhibition was inactive: -0.723%. For `COc1ccc(C(c2nnnn2C2CCCC2)N2CCC(n3c(=O)[nH]c4ccccc43)CC2)cc1` (stereo unspecified), the inhibition was inactive: -0.968%. For `CN(C)c1cccc(C(=O)NCC2(N3CCCCC3)CCCCC2)c1`, the inhibition was inactive: -0.814%. For `CCCCn1nnnc1C(c1ccccc1OC(F)(F)F)N1CCC(n2c(=O)[nH]c3ccccc32)CC1` (stereo unspecified), the inhibition was inactive: -8.01%. In the case of `CCCCn1nnnc1C(c1ccnc2ccccc12)N1CCC(n2c(=O)[nH]c3ccccc32)CC1` (stereo unspecified), the inhibition is reported as inactive: 11.9%. `COc1cc(OC)c(C(=O)NCC2(N(C)C)CCCCC2)cc1OC` was tested, and the inhibition was inactive: -0.545%. In the case of `O=C(NCC1(N2CCOCC2)CCCCC1)c1cc(F)c(F)cc1Cl`, the inhibition is reported as inactive: -0.235%. With `CCC(c1nnnn1C(C)(C)C)N1CCC(n2c(=O)[nH]c3ccccc32)CC1` (stereo unspecified) the inhibition was inactive: -1.66%. With `O=C(NCC1(N2CCCCC2)CCCCC1)c1cccc(C(F)(F)F)c1` the inhibition was inactive: -1.92%. In the case of `CN1CCN(CCOC(=O)C(O)(c2ccccc2)c2ccccc2)CC1`, the inhibition is reported as inactive: -0.351%. For `CCCCn1nnnc1C(c1cccc2ccccc12)N1CCC(n2c(=O)[nH]c3ccccc32)CC1` (stereo unspecified), the inhibition was inactive: -0.749%. In the case of `COc1cc(C(=O)NCC2(N3CCCCC3)CCCCC2)ccc1OC(F)F`, the inhibition is reported as inactive: -7.26%. With `O=C(NCC1(N2CCOCC2)CCCCC1)c1cc(=O)[nH]c2ccccc12` the inhibition was inactive: -0.515%. For `CC(C)(C)n1nnnc1C(c1ccccc1OC(F)(F)F)N1CCC(n2c(=O)[nH]c3ccccc32)CC1` (stereo unspecified), the inhibition was inactive: -2.36%. With `O=C(NCC1(N2CCCCC2)CCCCC1)c1ccc(OC(F)F)cc1` the inhibition was inactive: -2.08%. With `CSc1ccc(C(=O)NCC2(N3CCOCC3)CCCCC2)cc1` the inhibition was inactive: -0.541%. With `CCN1CCC(Nc2ccc(Cl)cc2)CC1` the inhibition was inactive: 2.04%. `O=c1[nH]c2ccccc2n1C1CCN(C(c2ccccc2OC(F)(F)F)c2nnnn2C2CCCC2)CC1` (stereo unspecified) was tested, and the inhibition was inactive: -3.84%. `N#CC1(Nc2ccccc2)CCN(CCc2ccccc2)CC1` was tested, and the inhibition was inactive: 2.06%.
